Reference: PubChem BioAssay AID624099 (ICCB-Longwood, 2012)
Aim: 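Human genes that papillomavirus E2 requires to repress the HPV18 LCR promoter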 (primary screen). Cells: human C33A cervical carcinoma cells (HPV-negative) stably expressing BPV1 E2 and an HPV18 LCR luciferase reporter. Reagents: siRNA pool against human genes, 40 nM. Time to read-out: 72 h. Measured: 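HPV18 LCR reporter light per well, converted to plate-wise z-scores that exclude control wells, and averaged over triplicate plates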. Scale: mean z-score and z-score: higher = stronger reporter signal, weaker E2 silencing. Rule for the call: 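Mean z ≥ 2 together with z ≥ 2 in two or more of the three replicates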.
Shown is a random part of about 21,000 reagents. 497 of them (2.4%) count as active. 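Higher z means weaker E2 silencing; only reporter increases were scored, and knock-downs that hurt cell survival may mask genuine repressor factors.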

{"target": "NT5E (5'-nucleotidase ecto)", "mean z-score": 0.28, "z-score, replicate A": 0.57, "z-score, replicate B": 0.12, "z-score, replicate C": 0.14, "Call": "inactive"}
{"target": "CHLSN (cholesin)", "mean z-score": -0.73, "z-score, replicate A": -0.85, "z-score, replicate B": -0.75, "z-score, replicate C": -0.6, "Call": "inactive"}
{"target": "KCNK5 (potassium two pore domain channel subfamily K member 5)", "mean z-score": -1.34, "z-score, replicate A": -1.28, "z-score, replicate B": -1.37, "z-score, replicate C": -1.36, "Call": "inactive"}
{"target": "RPS7P4 (ribosomal protein S7 pseudogene 4)", "mean z-score": -2.17, "z-score, replicate A": -2.27, "z-score, replicate B": -2.31, "z-score, replicate C": -1.93, "Call": "inactive"}
{"target": "FGFR1 (fibroblast growth factor receptor 1)", "mean z-score": -1.06, "z-score, replicate A": -0.37, "z-score, replicate B": -1.5, "z-score, replicate C": -1.3, "Call": "inactive"}
{"target": "ZMIZ1 (zinc finger MIZ-type containing 1)", "mean z-score": -1.76, "z-score, replicate A": -1.62, "z-score, replicate B": -2.08, "z-score, replicate C": -1.57, "Call": "inactive"}
{"target": "SPACA9 (sperm acrosome associated 9)", "mean z-score": 0.29, "z-score, replicate A": 0.61, "z-score, replicate B": 0.12, "z-score, replicate C": 0.13, "Call": "inactive"}
{"target": "IFT22 (intraflagellar transport 22)", "mean z-score": -0.28, "z-score, replicate A": 0.14, "z-score, replicate B": -0.46, "z-score, replicate C": -0.52, "Call": "inactive"}
{"target": "LINC02593 (long independently transcribed non-coding RNA 2593)", "mean z-score": -0.83, "z-score, replicate A": -0.74, "z-score, replicate B": -0.44, "z-score, replicate C": -1.32, "Call": "inactive"}
{"target": "FAM185A (family with sequence similarity 185 member A)", "mean z-score": -1.86, "z-score, replicate A": -2.3, "z-score, replicate B": -1.83, "z-score, replicate C": -1.45, "Call": "inactive"}
{"target": "GTPBP3 (GTP binding protein 3, mitochondrial)", "mean z-score": -0.36, "z-score, replicate A": -0.6, "z-score, replicate B": -0.44, "z-score, replicate C": -0.05, "Call": "inactive"}
{"target": "SMIM11 (small integral membrane protein 11)", "mean z-score": -0.9, "z-score, replicate A": -0.55, "z-score, replicate B": -0.87, "z-score, replicate C": -1.28, "Call": "inactive"}

2 entries from above, set out differently:
SPACA9 (sperm acrosome associated 9): mean z-score = 0.29; z-score, replicate A = 0.61; z-score, replicate B = 0.12; z-score, replicate C = 0.13; Call = inactive
IFT22 (intraflagellar transport 22): mean z-score = -0.28; z-score, replicate A = 0.14; z-score, replicate B = -0.46; z-score, replicate C = -0.52; Call = inactive
